A mixed list of measured activities; the numbers were collected in NIAID ChemDB.

Shared fields: growth or infection tests; agent: HIV-1

Rows are shuffled and stem from different studies. ECn: concentration that inhibits the pathogen or its effect by n%. An empty or dashed field is not shown.

SMILES	read by	changes	cells	strain	measure	result
Cc1cc(C#CC2CC2)cc(C)c1Oc1ccnc(Nc2ccc(C#N)cc2)n1	MTT	K103N	MT-4	IIIB	EC50	0.013 µM
CC(C)[C@H](NC(=O)c1ccc2ccccc2n1)C(=O)N[C@@H](Cc1ccccc1)[C@H](O)CN1CC[C@@H](OCc2ccncc2)C[C@H]1C(=O)NC(C)(C)C	p24	-	PBMC	UHC-1	EC50	0.004 µM
Cc1c(Sc2ccccc2)n(COCCO)c(=O)[nH]c1=O	cytopathic effect / XTT	RT-Y181C	CEM + CEM-SS	UC38-R(RT-Y181C	EC50	0.4 µM
O=C(N[C@H]1c2ccccc2OC[C@H]1O)[C@H](Cc1cccnc1)C[C@H](O)CN1CCN(Cc2ccn(-c3ccccc3F)c2)C[C@H]1C(=O)NCC(F)(F)F	p24	PR-L10I N37S R41K M46I I54V I62V L63P A71V V77I V82A L90M I93L	MT-4	Q-60C Clinical isolate	EC50	<0.031 µM
Cc1cn([C@H]2C=C[C@@H](CO)O2)c(=O)[nH]c1=O	p24	RT-V75I F77L Q151M	PBMC	Recombinant	EC50	0.08 µM
CCOCn1c(Cc2cc(C)cc(C)c2)c(CC)c(=O)[nH]c1=O	syncytia	-	CEM	IIIB	EC50	0.003 µg/mL
Cc1cn([C@H]2C[C@H](N=[N+]=[N-])[C@@H](CO)O2)c(=O)[nH]c1=O	cytopathic effect / MTT	-	CEM + CEM-SS	MN	EC50	0.002 µM
Cc1ccnc2c1NC(=O)c1cccnc1N2C1CC1	-	RT-M41L T215Y K101E	MT-4	-	EC50	<1.5 µM
Nc1nc(=O)n([C@@H]2CS[C@H](CO)O2)cc1F	plaque count	-	HT4 + HT4 LacZ-1	HXB2	EC50	0.15 µM
Fc1cccc(F)c1C1OCc2nc3ccccc3n21	cytopathic effect / MTT	RT-E138K	CEM	TSAO-resistant (RT E138K)	EC50	6.92 µM
COC(=O)[C@H](C)NP(=O)(OC[C@@H]1C=C[C@H](n2cc(C)c(=O)[nH]c2=O)O1)Oc1ccc(Br)cc1	p24	RT-M41L D67N T69N K70R T215F K219E	PBMC	7324-1 NRTI resistant recombinant	EC50	0.0137 µM
CCC(=O)c1ccc(F)c([C@@H]2C[C@@H]2NC(=O)Nc2ccc(C#N)cn2)c1O	absorbance	-	PBMC	BaL	EC50	0.0019 µM
Nc1nc(=O)n([C@H]2CS[C@@H](CO)O2)cc1F	plaque count	-	HT4 + HT4 LacZ-1	HXB2	EC50	19 µM
O=C(N[C@H]1c2ccccc2OC[C@H]1O)[C@H](Cc1cccnc1)C[C@H](O)CN1CCN(Cc2ccn(-c3ccc(Cl)c(Cl)c3)c2)C[C@H]1C(=O)NCC(F)(F)F	p24	PR-L10I M36I N37D M46I R57K L63P A71V G73S I84V L90M I93L	MT-4	V-18C Clinical isolate	EC50	<0.015 µM
O=c1[nH]cnc2c1ncn2[C@H]1CC[C@@H](CO)O1	p24	RT-Q151M	PBMC	Recombinant	EC50	1.3 µM
CC(C)(C)NC(=O)[C@@H]1C[C@@H]2CCCC[C@@H]2CN1C[C@@H](O)[C@H](Cc1ccccc1)NC(=O)[C@H](CC(N)=O)NC(=O)c1ccc2ccccc2n1	cytopathic effect / XTT	PR-V82A	MT-4	IIIB	EC50	0.013 µM
N#Cc1ccccc1-n1ccc(CN2CCN(C[C@@H](O)C[C@@H](Cc3cccnc3)C(=O)N[C@H]3c4ccccc4OC[C@H]3O)[C@H](C(=O)NCC(F)(F)F)C2)c1	p24	PR-L10I M46I I54V Q58E L63P I64V V77I V82F I84V L90M I93L	MT-4	K-60C Clinical isolate	EC50	<0.25 µM
Nc1ccn([C@H]2CC[C@@H](CO)O2)c(=O)n1	p24	-	H9	IIIB	EC50	0.003 µM
CC(C)CN(C[C@@H](O)[C@H](Cc1ccc(F)cc1)NC(=O)O[C@H]1CCO[C@H]2OCC[C@H]21)S(=O)(=O)c1ccc2nc(NC(C)C)sc2c1	p24 / luminescence	-	PBMC	BaL	EC50	0.0009 µM
Nc1ccn([C@H]2CC[C@@H](CO)O2)c(=O)n1	XTT	-	MT-2	HXB2D	EC50	2 ± 0.5 µM
CCn1c(=O)c(C)cn([C@@H]2O[C@H](CO[Si](C)(C)C(C)(C)C)C3(OS(=O)(=O)C=C3N)[C@H]2O[Si](C)(C)C(C)(C)C)c1=O	syncytia	RT-Y181C	CEM	IIIB E-EBU(RT-Y181C)	EC50	>50 µg/mL
Nc1ncnc2c1ncn2CC(CF)OCP(=O)(O)O	syncytia	RT-K103N	CEM	IIIB TIBO R82913 STR-2 (RT K103N)	EC50	2 µM
S=C(NCCc1cccs1)Nc1ccc(Br)cn1	p24	-	PBMC	H112-2 Clinical isolate	EC50	0.009 µM
O=C(N[C@H]1c2ccccc2OC[C@H]1O)[C@H](Cc1cccnc1)C[C@H](O)CN1CCN(Cc2ccn(-c3ccccc3)c2)C[C@H]1C(=O)NCC(F)(F)F	p24	PR-L10I M36I N37D M46I R57K L63P A71V G73S I84V L90M I93L	MT-4	V-18C Clinical isolate	EC95	≤0.008 µM
Nc1ncnc2c1ncn2CCOCP(=O)(O)O	syncytia	RT-Y181C	CEM	IIIB nevirapine-resistant (RT Y181C)	EC50	25 µM
CC[C@H](C)[C@@H](C(=O)O)n1sc2ccccc2c1=O	cytopathic effect / XTT	-	CEM + CEM-SS	RF	EC50	9 µM
Cc1ccnc2c1NC(=O)c1cccnc1N2C1CC1	syncytia	-	CEM	IIIB	EC50	0.03 µM
CCOCn1c(Sc2ccccc2)c(CC)c(=O)[nH]c1=S	syncytia	-	CEM	IIIB	EC50	0.004 µg/mL
Cc1cc(C#Cc2ccccc2)cc(C)c1Oc1ccnc(NC2CCN(Cc3ccc(S(N)(=O)=O)cc3)CC2)n1	MTT	-	MT-4	IIIB	EC50	0.005 µM
Fc1cccc(F)c1C1SCc2nc3ccccc3n21	cytopathic effect / XTT	-	MT-2	RF	EC50	1.32 µM
CC(C)=CCOc1cc(NC(=S)c2ccoc2C)ccc1Cl	syncytia	-	PBL	IIIB	EC50	0.001 µg/mL
Cc1cn([C@H]2C[C@H](N=[N+]=[N-])[C@@H](CO)O2)c(=O)[nH]c1=O	p24	-	PBL	CLADE B	EC50	0.006 µM
CC(C)=CCN1Cc2cc(Cl)cc3[nH]c(=S)n(c23)C[C@@H]1C	syncytia	RT-Y181C	CEM	IIIB nevirapine-resistant (RT Y181C)	EC50	2 µM
Fc1cccc(Cl)c1C1OCc2nc3ccccc3n21	cytopathic effect / MTT	-	MT-4	IIIB	EC50	6.07 µM
Cc1cn([C@@H]2O[C@H](CO[Si](C)(C)C(C)(C)C)[C@@]3(OS(=O)(=O)C=C3N)[C@H]2O[Si](C)(C)C(C)(C)C)c(=O)[nH]c1=O	syncytia	RT-K103N	CEM	IIIB TIBO R82913 STR-2 (RT K103N)	EC50	0.2 µM
Cc1occc1C(=S)Nc1ccc(Cl)c(/C=N/OC(C)(C)C)c1	p24	-	MM + M/M	BaL	EC50	0.85 µg/mL
CC(C)=CCN1Cc2cc(Cl)cc3[nH]c(=S)n(c23)C[C@@H]1C	syncytia	RT-K103N	CEM	IIIB TIBO R82913-resistant (RT K103N)	EC50	4.3 µg/mL
CC(C)=CCN1Cc2cc(Cl)cc3[nH]c(=S)n(c23)C[C@@H]1C	cytopathic effect	RT-Y181C	CEM	IIIB	EC50	2 µg/mL
COC(=O)N[C@H](C(=O)N[C@@H](Cc1ccccc1)[C@@H](O)CN(Cc1ccc(-c2ccccn2)cc1)NC(=O)[C@@H](NC(=O)OC)C(C)(C)C)C(C)(C)C	p24 / luminescence	-	MT-4	NL4-3	EC50	0.0027 µM
Cc1cc(C#Cc2ccc(N)cc2)cc(C)c1Oc1ccnc(Nc2ccc(C#N)cc2)n1	MTT	RES056	MT-4	IIIB	EC50	>5.385 µM
C#C[C@]1(CO)O[C@@H](n2cnc3c(N)nc(F)nc32)C[C@@H]1O	fluorescence	C162Y/M184I	MT4-GFP	Clinical isolate	EC50	0.00387 µM
Cc1cn([C@H]2C[C@H](N=[N+]=[N-])[C@@H](CO)O2)c(=O)[nH]c1=O	p24	RT-M41L T69ins L74V M184V L210W T215Y	PBMC	52534-2 NRTI resistant recombinant	EC50	>1 µM
CC(C)=CCOc1cc(NC(=S)c2ccsc2C)ccc1Cl	p24	-	MM + M/M	BaL	EC50	0.015 µg/mL
Cc1cccc(C)c1Oc1ccnc(Nc2ccc(C#N)cc2)n1	MTT	-	MT-4	IIIB	EC50	0.005 µM
Cc1cn([C@H]2C[C@H](N=[N+]=[N-])[C@@H](CO)O2)c(=O)[nH]c1=O	cytopathic effect / XTT	-	CEM + CEM-SS	KELL	EC50	0.007 µM
Cc1cc(C)c(Nc2ccnc(Nc3ccc(C#N)cc3)n2)c(C)c1	absorbance	-	PBMC	93TH051	EC50	0.0037 µM
CCOCn1c(Sc2ccccc2)c(CC)c(=O)[nH]c1=O	syncytia	RT-Y188H	CEM	IIIB HEPT-resistant (RT Y188H)	EC50	≥20 µg/mL

Repeating the final 6 entries:

SMILES	read by	changes	cells	strain	measure	result
Cc1cn([C@H]2C[C@H](N=[N+]=[N-])[C@@H](CO)O2)c(=O)[nH]c1=O	p24	RT-M41L T69ins L74V M184V L210W T215Y	PBMC	52534-2 NRTI resistant recombinant	EC50	>1 µM
CC(C)=CCOc1cc(NC(=S)c2ccsc2C)ccc1Cl	p24	-	MM + M/M	BaL	EC50	0.015 µg/mL
Cc1cccc(C)c1Oc1ccnc(Nc2ccc(C#N)cc2)n1	MTT	-	MT-4	IIIB	EC50	0.005 µM
Cc1cn([C@H]2C[C@H](N=[N+]=[N-])[C@@H](CO)O2)c(=O)[nH]c1=O	cytopathic effect / XTT	-	CEM + CEM-SS	KELL	EC50	0.007 µM
Cc1cc(C)c(Nc2ccnc(Nc3ccc(C#N)cc3)n2)c(C)c1	absorbance	-	PBMC	93TH051	EC50	0.0037 µM
CCOCn1c(Sc2ccccc2)c(CC)c(=O)[nH]c1=O	syncytia	RT-Y188H	CEM	IIIB HEPT-resistant (RT Y188H)	EC50	≥20 µg/mL